Counter-ions that a name gives are not always drawn. Like-named read-outs stand apart in the source and are kept apart here.
What was measured:
[1] = system: genotype 1 HCV (serum HCV RNA)
[2] = system: S405T mutant BVDV; assay type: cell-based, bovine viral diarrhea virus; settings: de novo-infected MDBK

Compound	viral load drop in response to therapy ([1]; animal 497, site 2 (largest drop)) [log10]	viral load drop in response to therapy ([1]; animal 501, site 1 (smallest drop)) [log10]	sensitivity of S405T mutant relative to wild-type [2] [fold]
CC(C)C(N)C(=O)OC1[C@@H](CO)O[C@@H](n2ccc(N)nc2=O)C1(C)O (stereo in doubt) [val-mCyd, 2-Amino-3-methyl-butyric acid 5-(4-amino-2-oxo-2H-pyrimidine-1-yl)-4-hydroxy-2 hydroxy-methyl-4-methyl-tetrahydro-furan-3-yl ester (dihydrochloride salt)]	1.514	0.436	–
interferon alpha 2b	–	–	~40

Reference: patent US7582618B2 (priority 2002, dated 2009)
